From ChEMBL document CHEMBL1649456 (Antimicrob Agents Chemother, 2009)

Key:
Coxiella burnetii [1] = assay: Antimicrobial activity against compound-intermediate susceptible Coxiella burnetii isolate CP5 obtained from patient with acute Q fever infected in african green monkey Vero cells after 24 hrs by shell vial assay; conditions: strain isolate CP5, Vero
Coxiella burnetii [2] = assay: Antimicrobial activity against compound-intermediate susceptible Coxiella burnetii isolate CP4 obtained from patient with acute Q fever infected in african green monkey Vero cells after 24 hrs by shell vial assay; format: functional; conditions: strain isolate CP4, Vero
Coxiella burnetii [3] = assay: Antimicrobial activity against compound-intermediate susceptible Coxiella burnetii isolate CP8 obtained from patient with acute Q fever infected in african green monkey Vero cells after 24 hrs by shell vial assay; conditions: strain isolate CP8, Vero
Coxiella burnetii [4] = assay: Antimicrobial activity against compound-intermediate susceptible Coxiella burnetii isolate CP7 obtained from patient with acute Q fever infected in african green monkey Vero cells after 24 hrs by shell vial assay; conditions: strain isolate CP7, Vero
Coxiella burnetii [5] = assay: Antimicrobial activity against compound-intermediate susceptible Coxiella burnetii isolate CP2 obtained from patient with acute Q fever infected in african green monkey Vero cells after 24 hrs by shell vial assay; conditions: strain isolate CP2, Vero
Coxiella burnetii [6] = assay: Antimicrobial activity against compound-intermediate susceptible Coxiella burnetii Nine-Mile obtained from patient with acute Q fever infected in african green monkey Vero cells after 24 hrs by shell vial assay; conditions: strain Nine-Mile
Coxiella burnetii [7] = assay: Antimicrobial activity against compound-intermediate susceptible Coxiella burnetii isolate CP6 obtained from patient with acute Q fever infected in african green monkey Vero cells after 24 hrs by shell vial assay; conditions: strain isolate CP6, Vero
Coxiella burnetii [8] = assay: Antimicrobial activity against compound-intermediate susceptible Coxiella burnetii isolate CP3 obtained from patient with acute Q fever infected in african green monkey Vero cells after 24 hrs by shell vial assay; conditions: strain isolate CP3, Vero

Row | Compound | MIC (Coxiella burnetii [1]) | MIC (Coxiella burnetii [2]) | MIC (Coxiella burnetii [3]) | MIC (Coxiella burnetii [4]) | MIC (Coxiella burnetii [5]) | MIC (Coxiella burnetii [6]) | MIC (Coxiella burnetii [7]) | MIC (Coxiella burnetii [8])
1 | CC[C@H]1OC(=O)[C@H](C)[C@@H](O[C@H]2C[C@@](C)(OC)[C@@H](O)[C@H](C)O2)[C@H](C)[C@@H](O[C@@H]2O[C@H](C)C[C@H](N(C)C)[C@H]2O)[C@](C)(OC)C[C@@H](C)C(=O)[C@H](C)[C@@H](O)[C@]1(C)O [CLARITHROMYCIN] | 1 µg/mL (≈ 1.34 µM) | 1 µg/mL (≈ 1.34 µM) | 1 µg/mL (≈ 1.34 µM) | 1 µg/mL (≈ 1.34 µM) | 1 µg/mL (≈ 1.34 µM) | 1 µg/mL (≈ 1.34 µM) | 1 µg/mL (≈ 1.34 µM) | 1 µg/mL (≈ 1.34 µM)
2 | C[C@H]1c2cccc(O)c2C(=O)C2=C(O)[C@]3(O)C(=O)C(C(N)=O)=C(O)[C@@H](N(C)C)[C@@H]3[C@@H](O)[C@@H]21.O [DOXYCYCLINE] | 0.5 µg/mL | – | 0.5 µg/mL | 0.5 µg/mL | 0.5 µg/mL | 0.5 µg/mL | 0.5 µg/mL | 0.5 µg/mL
3 | N[C@@H]1[C@H]2CN(c3nc4c(cc3F)c(=O)c(C(=O)O)cn4-c3ccc(F)cc3F)C[C@@H]12 [TROVAFLOXACIN] | 0.5 µg/mL (≈ 1.2 µM) | 0.5 µg/mL (≈ 1.2 µM) | 0.5 µg/mL (≈ 1.2 µM) | 0.5 µg/mL (≈ 1.2 µM) | 0.5 µg/mL (≈ 1.2 µM) | 0.5 µg/mL (≈ 1.2 µM) | 0.5 µg/mL (≈ 1.2 µM) | 0.5 µg/mL (≈ 1.2 µM)

Converted amounts (≈) assume the structure as drawn.
